{"source": "patent US20160068577", "target": "HER2, human, P04626 23-1255"}
{"substance": "αHER2-VHH fused with SLT-1A", "values": [{"measurement": "Kd", "result": 2.35, "unit": "nM"}]}
